PubChem BioAssay AID624099 | ICCB-Longwood, 2012

- Purpose: 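Human genes that papillomavirus E2 requires to repress the HPV18 LCR promoter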 (primary screen)
- Cell system: human C33A cervical carcinoma cells (HPV-negative) stably expressing BPV1 E2 and an HPV18 LCR luciferase reporter
- Reagent: siRNA pool against human genes, 40 nM
- Timing: 72 h
- Measurement: 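Per-well luciferase luminescence, z-scored on each plate against the plate mean and SD with control wells left out, then averaged across three replicate plates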
- Direction: mean z-score and z-score: higher = stronger reporter signal, weaker E2 silencing
- Active means: 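Hit if mean z-score reaches 2 and two or more of three replicate z-scores also reach 2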
Shown is one part, drawn at random, of about 21,000 deposited reagents. In the full data, 497 (2.4%) got an active call. 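Higher z means weaker E2 silencing; only reporter increases were scored, and knock-downs that hurt cell survival may mask genuine repressor factors.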

no.	Gene	mean z-score	z-score, replicate A	z-score, replicate B	z-score, replicate C	activity call
1	SHF (Src homology 2 domain containing F)	0.15	0.22	0.3	-0.08	inactive
2	LOC402318 (retired record)	0.49	0.55	0.44	0.46	inactive
3	COL24A1 (collagen type XXIV alpha 1 chain)	-1.71	-1.36	-1.9	-1.88	inactive
4	NR0B1 (nuclear receptor subfamily 0 group B member 1)	0.39	0.32	0.42	0.43	inactive
5	PIGM (phosphatidylinositol glycan anchor biosynthesis class M)	1.13	1.05	1.02	1.32	inactive
6	RPS12P4 (ribosomal protein S12 pseudogene 4)	0.51	0.4	0.77	0.34	inactive
7	BCL2L12 (BCL2 like 12)	-1.17	-0.87	-1.17	-1.47	inactive
8	CHTF8 (chromosome transmission fidelity factor 8)	0.36	0.51	0.45	0.12	inactive
9	PDZD4 (PDZ domain containing 4)	-0.11	-0.28	0.22	-0.28	inactive
10	PDCD6 (programmed cell death 6)	0	0.08	-0.02	-0.08	inactive
11	MT1X (metallothionein 1X)	0.27	0.1	0.45	0.25	inactive
12	EBNA1BP2 (EBNA1 binding protein 2)	-2.24	-2.34	-2.1	-2.29	inactive
13	RPL37A (ribosomal protein L37a)	-2.54	-2.62	-2.34	-2.66	inactive
14	TRAM2 (translocation associated membrane protein 2)	-0.17	-0.01	-0.14	-0.35	inactive
15	SURF6 (surfeit 6)	-0.31	0.2	-0.59	-0.55	inactive
16	CHDH (choline dehydrogenase)	-0.69	-0.45	-0.86	-0.76	inactive
17	CARF (calcium responsive transcription factor)	0.37	0.67	0.27	0.17	inactive
18	CRLF2 (cytokine receptor like factor 2)	1.04	1.17	1.02	0.95	inactive
19	LINC00158 (long independently transcribed non-coding RNA 158)	0.58	0.81	0.6	0.32	inactive
20	LOC339003 (retired record)	-0.04	-0.08	0.07	-0.1	inactive
21	CPA6 (carboxypeptidase A6)	-1.2	-1.13	-1.26	-1.22	inactive
22	CLPTM1 (CLPTM1 regulator of GABA type A receptor forward trafficking)	0.48	0.57	0.33	0.54	inactive
23	BTBD3 (BTB domain containing 3)	0.09	-0.07	0.42	-0.09	inactive
